From patent US20220356229A1 (published 2022)

B1: antibody 278 (antibody, V domains shown)
VH: QVQLVQSGAEVKKPGASVKVSCKASGYTFTSYYMHWVRQAPGQGLEWMGIINPSGGSTSYAQKFQGRVTMTRDTSTSTVYMELSSLRSEDTAVYYCARDHSNADPYYDFWSGYYTRTYYYGMDVWGQGTTVTVSS
VL: not shown
B2: antibody 528 (antibody, V domains shown)
VH: QVQLVQSGAEVKKPGSSVKVSCKASGGTFNSNSISWVRQAPGQGLEWMGRIIPILDITMYARKFQGRVTISADKSTGTAYMDLSSLRSEDTAVYYCATDRDDSSGDYYYGMDVWGQGTTVTVSS
VL: DIQMTQSPSSLSASVGDRVTITCRASLSISNYLNWYQQKPGKAPNLLIYAASTLQSGVPSRFSGSGSGTDFTLTISSLQPEDFATYYCQQTYITRWTFGQGTKVEIK
B3: antibody 530 (antibody, V domains shown)
VH: EVQLVESGGGLVQPGGSLRLSCAASGFTFSSYWMSWVRQAPGKGLEWVANIKQDGSEKYYVDSVKGRFTISRDNAKNSLYLQMNSLRAEDTAVYYCAREPQLWSEYYFDYWGQGTLVTVSS
VL: DIQMTQSPSSLSASVGDRVTITCRASQGISSWLAWYQQKPEKAPKSLIYAASSLQSGVPSRFSGSGSGTDFTLTISSLQPEDFATYYCQQYNSYPPTFGQGTRLEIK
B4: antibody 532 (antibody, V domains shown)
VH: EVQLVESGGGLVQPGGSLRLSCAASGIIVSSNYMSWVRQAPGKGLEWVSVIYSGGSTYYADSVKGRFTISRDNSKNTLYLQMNSLRAEDTAVYYCAREGLVGATLAFDYWGQGTLVTVSS
VL: not shown
B5: antibody 502 (antibody, V domains shown)
VH: QVQLVQSGAEVKKPGASVKVSCKASGYTFTSYYMHWVRQAPGQGLEWMGIINPSGGSTSYAQKFQGRVTMTRDTATSTVYMELSSLRSEDTAVYYCARGGGQISMIIVVMDDAFDIWGQGTMVTVSS
VL: EILMTQSPATLSVSPGERATLSCRASQSVSSNLAWYQQKPGQAPRLLIYGASTRATGIPARFSGSGSGTEFTLTISSLQSEDFAVYYCQQYNNWPYTFGQGTKLEIK
B6: antibody 518 (antibody, V domains shown)
VH: QVQLVESGGGVVQPGRSLRLSCAASGFTFSSYAMHWVRQAPGKGLEWVAVISYDGSNKYYADSVKGRFTISRDNSKNTLYLQMNSLRAEDTAVYYCAKPYSGSYWDAFDIWGQGTMVTVSS
VL: not shown
B7: antibody 508 (antibody, V domains shown)
VH: EVQLVQSGAEVKKPGATVKISCKVSGYTFTDYYMHWVQQAPGKGLEWMGLVDPEDGETIYAEKFQGRVTITADTSTDTAYMELSSLRSEDTAVYYCAVENMITFGGVIVKRGAFDIWGQGTMVTVSS
VL: DIQMTQSPSSLSASVGDRVTITCQASQDISNYLNWYQQKPGKAPKLLIYDASNLETGVPSRFSGSGSGTDFTFTISSLQPEDIATYYCQQYDNLPLFTFGPGTKVDIK

Each binder was assayed against T1, SARS-CoV-2 Spike (S) protein, wild type, full length (SARS-CoV-2, UniProt P0DTC2 14-1208) (assay: bead assay, flow cytometry).

Binder | bead binding signal (fold over isotype)
B1 | 120

Molecular target: T1, SARS-CoV-2 Spike (S) protein, wild …
Experiment: bead assay, flow cytometry
Remark: another data set of the same source

Binder | bead binding signal (fold over isotype)
B1 | 556

Molecular target: T1, SARS-CoV-2 Spike (S) protein, wild …
Experiment: bead assay, flow cytometry
Remark: another data set of the same source

Binder | bead binding signal (fold over isotype)
B1 | 321

Molecular target: T1, SARS-CoV-2 Spike (S) protein, wild …
Experiment: bead assay, flow cytometry
Remark: another data set of the same source

Binder | bead binding signal (fold over isotype)
B1 | 3.29

Molecular target: T1, SARS-CoV-2 Spike (S) protein, wild …
Experiment: bead assay, flow cytometry
Remark: another data set of the same source

Binder | bead binding signal (fold over isotype)
B1 | 14.8

Molecular target: T1, SARS-CoV-2 Spike (S) protein, wild …
Experiment: bead assay, flow cytometry
Remark: another data set of the same source

Binder | bead binding signal (fold over isotype)
B1 | 185

What follows are binders tested against T2, SARS-CoV-2 Spike (S) protein, wild type, full length (SARS-CoV-2, UniProt P0DTC2 14-1273) (assay: flow cytometry, CHO cells expressing full-length Spike).

Binder | median fluorescence, fold over isotype control [fold over isotype]
B2 | 23.2
B3 | 11.8
B4 | 40.2
B5 | 28.6
B6 | 16.5

Molecular target: T2, SARS-CoV-2 Spike (S) protein, wild …
Experiment: as above
Remark: another data set of the same source

Binder | median fluorescence, fold over isotype control [fold over isotype]
B2 | 11.9
B3 | 5.76
B4 | 15.2
B7 | 2.94
B5 | 18.5
B6 | 8.65

Molecular target: T2, SARS-CoV-2 Spike (S) protein, wild …
Experiment: as above
Remark: another data set of the same source

Binder | median fluorescence, fold over isotype control [fold over isotype]
B2 | 2.99
B3 | 2.02
B4 | 14.5
B7 | 1.48
B5 | 7.68
B6 | 8.31

Molecular target: T2, SARS-CoV-2 Spike (S) protein, wild …
Experiment: as above
Remark: another data set of the same source

Binder | median fluorescence, fold over isotype control [fold over isotype]
B2 | 8.72
B3 | 3.97
B4 | 27.7
B7 | 2.5
B5 | 19
B6 | 10.4

Molecular target: T2, SARS-CoV-2 Spike (S) protein, wild …
Experiment: as above
Remark: another data set of the same source

Binder | median fluorescence, fold over isotype control [fold over isotype]
B2 | 5.31
B3 | 2.24
B4 | 20.1
B7 | 1.11
B5 | 14.7
B6 | 7.25
